Pooled drug test results. Numbers come from NIAID ChemDB, via PubChem.

All rows: growth or infection tests; agent: Candida parapsilosis

ECn: concentration that inhibits the pathogen or its effect by n%. a–b is a range or a potency band. MIC50, MIC90 and the like: level of inhibition, or share of isolates inhibited. Lines come from different laboratories, so protocols vary. Blank or dashed fields: not listed here.

structure | conditions | strain | endpoint | method | result
O=C1C(=O)c2ccccc2C2=C1CC(CI)O2 |  | Clinical isolate | MIC | broth dilution | 32 µg/mL
CCC(C)CC(C)CCCCCCCCC(=O)N[C@H]1C[C@@H](O)[C@H](NCCN)NC(=O)[C@@H]2[C@@H](O)CCN2C(=O)[C@H]([C@H](O)CCN)NC(=O)[C@H]([C@H](O)[C@@H](O)c2ccc(O)cc2)NC(=O)[C@@H]2C[C@@H](O)CN2C(=O)[C@H]([C@@H](C)O)NC1=O |  |  | MIC90 | broth dilution | 16 µg/mL
c1ccc(C(c2ccccc2)n2nnc3ccccc32)cc1 |  |  | MFC | broth dilution | >256 µg/mL
Cc1ccccc1NC(=S)NNC(=O)c1cc2ccccc2cn1 |  | ATCC 22019 | MIC | agar | 50 µg/mL
O=C(O)CN1C(=O)CSC1c1ccccn1 |  |  | EC50 | broth dilution | 78.61 µM
CC1CC(=O)N(CCc2ccccc2)C1=O |  | CCC 124-2000 | MIC | broth dilution / turbidity | 125 µg/mL
Nc1ncccc1-c1cc(Cc2ccc(COc3ccccn3)cc2)no1 |  |  | MIC50 | broth dilution | 0.03 µg/mL
CN(Cc1ccc(S(=O)(=O)NC(C)(C)C)cc1)CC(O)(Cn1cncn1)c1ccc(F)cc1F |  | CAPA2 | MIC | resazurin | 0.84 µg/mL
Cc1nn2c(-c3ccncc3)nnc2s/c1=N/Nc1ccc(F)cc1 |  | ATCC 22019 | MIC | broth dilution | 6.25 µg/mL
COC(=O)c1c(C)oc2cc(C(=O)C(Cl)Cl)c(O)c(Cl)c12 |  | ATCC 22019 | MIC |  | 100 µg/mL
COc1ccc(C2CC(c3ccc4ccccc4c3)=Cc3[nH][nH]c(=O)c32)cc1 |  |  | MIC |  | 200 µg/mL
Cc1ccc(-c2c3c(N)c4c(nc3nc3c2c(C)nn3-c2ccccc2)CCCC4)cc1 |  | CCC 124 | MIC80 | broth dilution / absorbance | 31.2 µg/mL
O=C(O)C(Cc1ccccc1)N1C(=O)CSC1c1ccccn1 |  |  | EC50 | broth dilution | 80.64 µM
COC(=O)CN(CCCOc1ccccc1)CC(O)(Cn1cncn1)c1ccc(F)cc1F |  |  | EC80 |  | >64 µg/mL
O=C(CCn1ccnc1)c1ccc2ccccc2c1 |  | RTCC 1079 | MIC | broth dilution | >64 µg/mL
CC(C)S(=O)(=O)Nc1ccc(CN(C)CC(O)(Cn2cncn2)c2ccc(F)cc2F)cc1 |  | CAPA1 | MIC | resazurin | 4.5 µg/mL
COC(=O)/C(C)=C1\C(=O)[C@H](O)[C@]2(C)C3=C(C[C@@H]4[C@]5(OC(=O)C6=C5C[C@H]5[C@](O)(COC(=O)/C(C)=C/COC(=O)CCC(=O)OC6)[C@H]6C[C@H]6[C@]45C)[C@H]31)[C@H]1C[C@H]12 |  | ATCC 22019 | MIC | broth dilution | 64 µg/mL
Cc1ccc(C2CC(c3ccc4ccccc4c3)=Cc3[nH][nH]c(=O)c32)cc1 |  |  | MIC |  | 25 µg/mL
CC(=O)N1CCN(c2ccc(OC[C@H]3CO[C@](Cn4ccnc4)(c4ccc(Cl)cc4Cl)O3)cc2)CC1 |  | ATCC 22019 | MIC | broth dilution | 3 µg/mL
O=C(c1ccccc1)C(c1ccccc1)n1cncn1 |  |  | MFC | broth dilution | >256 µg/mL
Cc1ccc(C(O)c2cccc(C(O)CCn3ccnc3)c2)cc1 |  | RTCC 1018 | MIC | broth dilution | >64 µg/mL
CN(Cc1ccc(NS(=O)(=O)c2ccc([N+](=O)[O-])cc2)cc1)CC(O)(Cn1cncn1)c1ccc(F)cc1F |  | CAPA2 | MIC | resazurin | 1.7 µg/mL
C[C@@H]1CC(=O)N(Cc2ccccc2)C1=O |  | CCC 124-2000 | MIC | broth dilution / turbidity | 62.5 µg/mL
Cc1ccc(-c2c3c(N)c4c(nc3nc3c2c(C)nn3-c2ccccc2)CCCCC4)cc1 |  | CCC 124 | MIC100 | broth dilution / absorbance | 125 µg/mL
O=C1c2ccccc2CC1Cn1ccnc1 |  | RTCC 1018 | MIC | broth dilution | >64 µg/mL
O=C(c1ccccc1)C(c1ccccc1)n1nnc2ccccc21 |  |  | MIC90 | agar | >256 µg/mL
Cc1nn2c(-c3ccncc3)nnc2s/c1=N/Nc1ccccc1 |  | ATCC 22019 | MIC | broth dilution | 12.5 µg/mL
CC(C)(O)c1cn(-c2ccc(Cl)cc2)nn1 |  | URM 3627 | MIC | broth dilution | 64 µg/mL
COc1ccccc1C1SCC(=O)N1C(CC(C)C)C(=O)O |  |  | EC50 | broth dilution | 56.51 µM
CCC(C)n1ncn(-c2ccc(N3CCN(c4ccc(OC[C@H]5CO[C@](Cn6cncn6)(c6ccc(Cl)cc6Cl)O5)cc4)CC3)cc2)c1=O |  | ATCC 22019 | MIC | broth dilution | 0.0625 µg/mL
O=C(CCn1ccnc1)c1cccc2ccccc12 |  | RTCC 1018 | MIC | broth dilution | 64 µg/mL
CC(C)CC(C(=O)O)N1C(=O)C(C)SC1c1ccccc1 |  |  | EC50 | broth dilution | 79.52 µM
Cc1nnsc1C(=O)NNC(=S)Nc1ccc([N+](=O)[O-])cc1 |  | ATCC 22019 | MIC | agar | 50 µg/mL
C[C@@H]1C(=O)N(CCCc2ccccc2)C(=O)[C@@H]1C |  | CCC 124-2000 | MIC | broth dilution / turbidity | 62.5 µg/mL
C[C@H]1[C@H](O)[C@@H](C)/C=C/C=C/C=C/C=C/C=C/C=C/C=C/[C@H](O[C@@H]2O[C@H](C)[C@@H](O)[C@H](N)[C@@H]2O)C[C@@H]2O[C@](O)(C[C@@H](O)C[C@@H](O)CC[C@H](O)[C@@H](O)C[C@@H](O)CC(=O)O[C@H]1C)C[C@H](O)[C@H]2C(=O)O |  | ATCC 22019 | MIC | broth dilution | 0.0625 µg/mL
Cc1ccc(-c2c3c(N)c4c(nc3nc3c2c(C)nn3-c2ccccc2)CCC4)cc1 |  | CCC 124 | MIC100 | broth dilution / absorbance | 125 µg/mL
OC(Cn1cncn1)(Cn1cncn1)c1ccc(F)cc1F |  |  | MIC | agar | 6.2–25 µg/mL
O=C(O)C(Cc1ccccc1)N1C(=O)CSC1c1ccccc1 |  |  | EC50 | broth dilution | 52.9 µM
C/C1=C\C(=O)c2c(C)coc2C/C(C)=C/CC1 |  | ATCC 22019 | MIC | broth dilution | >256 µg/mL
CN(Cc1ccc(S(N)(=O)=O)cc1)CC(O)(Cn1cncn1)c1ccc(F)cc1F |  | CAPA1 | MIC | resazurin | 0.91 µg/mL
Cc1nnsc1C(=O)NNC(=S)Nc1ccc(F)cc1 |  | ATCC 22019 | MIC | agar | 100 µg/mL
CCCN(CCCOc1ccc(Br)cc1)CC(O)(Cn1cncn1)c1ccc(F)cc1F |  |  | EC80 |  | >64 µg/mL
C[C@@H]1CC(=O)N(c2ccc(Cl)cc2)C1=O |  | CCC 124-2000 | MIC | broth dilution / turbidity | 125 µg/mL
CC(C)NS(=O)(=O)c1ccc(CN(C)CC(O)(Cn2cncn2)c2ccc(F)cc2F)cc1 |  | CAPA1 | MIC | resazurin | 0.58 µg/mL
C[C@H]1[C@H](O)[C@@H](C)/C=C/C=C/C=C/C=C/C=C/C=C/C=C/[C@H](O[C@@H]2O[C@H](C)[C@@H](O)[C@H](N)[C@@H]2O)C[C@@H]2O[C@](O)(C[C@@H](O)C[C@@H](O)CC[C@H](O)[C@@H](O)C[C@@H](O)CC(=O)O[C@H]1C)C[C@H](O)[C@H]2C(=O)O | 24 h | NBRC 1396 | MIC | broth dilution | 0.5 µg/mL
Clc1ccc(C(c2ccccc2)n2ccnc2)cc1 |  |  | MFC | broth dilution | 32 µg/mL
CC1=C2C3=C4[C@@](C)(C(=O)[C@]2(O)OC1=O)[C@@H]1C[C@@H]1[C@@]4(O)C[C@@H]1[C@]32OC(=O)C3=C2C[C@H]2[C@](O)(COC(=O)/C(C)=C/COC(=O)CCC(=O)OC3)[C@H]3C[C@H]3[C@]12C |  | ATCC 22019 | MIC | broth dilution | >256 µg/mL
O=C(O)C(Cc1ccccc1)N1C(=O)CCSC1c1ccccc1 |  |  | EC50 | broth dilution | 56.28 µM
O=C(CCn1ccnc1)c1ccc(-c2ccccc2)cc1 |  | RTCC 1018 | MIC | broth dilution | 64 µg/mL
COc1ccccc1C1SCCC(=O)N1C(Cc1ccccc1)C(=O)O |  |  | EC50 | broth dilution | 78.12 µM
CC1CC(=O)N(Cc2ccccc2)C1=O |  | CCC 124-2000 | MIC | broth dilution / turbidity | 125 µg/mL
O=C(NNC(=S)Nc1ccc(F)cc1)c1cccs1 |  | ATCC 22019 | MIC | agar | 50 µg/mL